Reference: US20230174690A1, “COMPOSITIONS AND METHODS FOR SINGLE-STEP MULTIPURPOSE SURFACE FUNCTIONALIZATION” (Rutgers, The State University of New Jersey, priority 2019, published 2023)

Test: Modified MicroBCA assay of Cu(I) production from Cu(II)
Details: 10 mM compound with CuSO4 5 mM; 37° C., 30 min

C#CCOCCOCCNC(=O)[C@@H](N)Cc1ccc(O)c(O)c1 [p-DOPAmide, (S)-2-amino-3-(3,4-dihydroxyphenyl)-N-(2-(2-(prop-2-yn-1-yloxy)ethoxy)ethyl)-propanamide]
Cu(I) production (violet colour of the Cu(I)-BCA complex): violet color was formed
